Pooled drug test results. Numbers come from NIAID ChemDB, via PubChem.

Shared fields: growth or infection tests; organism: HIV-1; cells: C8166; endpoint: EC50

Neighbouring rows are from separate reports. An empty or dashed field is not shown. ECn: concentration that inhibits the pathogen or its effect by n%.

{"SMILES": "Nc1ccn([C@H]2CC[C@@H](COP(=O)(OCC(Cl)(Cl)Cl)OCC(Cl)(Cl)Cl)O2)c(=O)n1", "strain or isolate": "RF", "method": "antigen", "result": "7 µM"}
{"SMILES": "CC(C)(C)NC(=O)[C@@H]1C[C@@H]2CCCC[C@@H]2CN1C[C@@H](O)[C@H](Cc1ccccc1)NC(=O)[C@H](CC(N)=O)NC(=O)c1ccc2ccccc2n1", "strain or isolate": "IIIB(Ro3G)", "result": "0.0218 µM"}
{"SMILES": "CCN(/C=C/c1ccc(OC)cc1OC)C(C)=O", "strain or isolate": "IIIB", "method": "syncytia", "result": "19 µM"}
{"SMILES": "C=C(C)[C@@]1(OC(=O)c2ccccc2)[C@H](OC(C)=O)[C@@H]2[C@H](OC(C)=O)[C@@]3(C)O[C@@]4([C@@H]3O)[C@@H](OC(=O)c3ccccc3)[C@@H](C)C[C@H]4[C@@]2(O)[C@H](C)[C@@H]1OC(C)=O", "strain or isolate": "IIIB", "method": "syncytia / visual reading", "result": "0.09509 µM"}
{"SMILES": "Cc1cn([C@H]2C[C@H](N=[N+]=[N-])[C@@H](CO)O2)c(=O)[nH]c1=O", "strain or isolate": "RF", "method": "cytopathic effect", "result": "<1 µg/mL"}
{"SMILES": "C[C@@H]1O[C@@H](OC[C@H]2O[C@@H](Oc3c(-c4ccc(OS(=O)(=O)O)c(OS(=O)(=O)O)c4)oc4cc(OS(=O)(=O)O)cc(OS(=O)(=O)O)c4c3=O)[C@H](OS(=O)(=O)O)[C@@H](OS(=O)(=O)O)[C@@H]2OS(=O)(=O)O)[C@H](OS(=O)(=O)O)[C@H](OS(=O)(=O)O)[C@H]1OS(=O)(=O)O", "strain or isolate": "IIIB X4", "method": "syncytia", "result": "2.3 µM"}
{"SMILES": "C=CC(C)(C)c1cc2cc3c(cc2oc1=O)O[C@H](C(C)(C)O)[C@H]3O", "method": "MTT / syncytia", "result": "0.17 µM"}
{"SMILES": "Cc1cn([C@H]2C[C@H](N=[N+]=[N-])[C@@H](CO)O2)c(=O)[nH]c1=O", "strain or isolate": "IIIB", "method": "p24", "result": "0.04 µM"}
{"SMILES": "Cc1cn([C@H]2C[C@H](N=[N+]=[N-])[C@@H](CO)O2)c(=O)[nH]c1=O", "strain or isolate": "IIIB", "method": "p24 / ELISA", "result": "0.01 µM"}
{"SMILES": "Nc1ncnc2c1ncn2CCOCP(=O)(O)O", "strain or isolate": "IIIB", "method": "syncytia", "result": "10 µM"}
{"SMILES": "CCc1c(CC2CCCCC2)nc(SCC(=O)c2ccccc2)[nH]c1=O", "strain or isolate": "NL4-3", "method": "p24 / ELISA", "result": "0.00774 µM"}
{"SMILES": "CC(=O)N(C)/C=C/c1ccccc1F", "strain or isolate": "IIIB", "method": "syncytia", "result": "130 µM"}
{"SMILES": "CC(C)=CCc1cc2ccc(=O)oc2c(CC=C(C)C)c1O", "method": "MTT / syncytia", "result": "1.59 µM"}
{"SMILES": "N#C/C=C1/c2cc(S)cc([N+](=O)[O-])c2-c2c1cc(S(=O)(=O)NCc1ccccc1)cc2[N+](=O)[O-]", "strain or isolate": "IIIB", "method": "p24 / ELISA", "result": "74.34 µM"}
{"SMILES": "C[C@H](Cn1cnc2c(N)ncnc21)OCP(=O)(O)O", "strain or isolate": "IIIB", "method": "syncytia", "result": "14 µM"}
{"SMILES": "CCN1c2ncccc2N(C)C(=O)c2oc3cccnc3c21", "strain or isolate": "IIIB", "method": "cytopathic effect", "result": "0.02 µM"}
{"SMILES": "C=C(C)[C@@]12OC3(c4ccccc4)O[C@@H]1[C@@H]1[C@H](O)[C@](O)(CO)[C@@H](O)[C@]4(O)C(=O)C(C)=C[C@H]4[C@@]1(O3)[C@H](C)[C@H]2OC(=O)c1ccccc1", "strain or isolate": "IIIB", "method": "syncytia / visual reading", "result": "5.36 µM"}
{"SMILES": "C=C(C)[C@@H]1Cc2c(cc3oc(=O)ccc3c2O)O1", "method": "MTT / syncytia", "result": "7.26 µM"}
{"SMILES": "CC(C)C[C@H](NC(=O)[C@H](CC(=O)O)NC(=O)[C@@H](N)Cc1ccc(O)cc1)C(=O)N[C@@H](CC(=O)O)C(=O)N[C@@H](Cc1ccc(O)cc1)C(=O)N[C@@H](Cc1ccc(O)cc1)C(=O)O", "strain or isolate": "GUN1", "method": "syncytia", "result": "<200 µg/mL"}
{"SMILES": "C=CCN(/C=C/c1ccccc1C)C(C)=O", "strain or isolate": "IIIB", "method": "syncytia", "result": "273 µM"}
{"SMILES": "Nc1ccn([C@H]2CC[C@@H](COP(=O)(OCC(F)(F)F)OCC(F)(F)F)O2)c(=O)n1", "strain or isolate": "RF", "method": "antigen", "result": "30 µM"}
{"SMILES": "COC(=O)c1cc2c(c(OC)c1-c1ccc(N(C)C)cc1)OCO2", "strain or isolate": "NL4-3", "changes": "Y181C", "method": "antigen", "result": "23.7 µM"}
{"SMILES": "Cc1cn([C@H]2C[C@H](N=[N+]=[N-])[C@@H](CO)O2)c(=O)[nH]c1=O", "strain or isolate": "MN", "method": "ELISA", "result": "0.004 µg/mL"}
{"SMILES": "CCN(/C=C/c1ccccc1Cl)C(C)=O", "strain or isolate": "IIIB", "method": "syncytia", "result": "91 µM"}
{"SMILES": "COc1cc2cc3c(cc2oc1=O)OC(C)(C)C=C3", "method": "MTT / syncytia", "result": "3.19 µM"}
{"SMILES": "CCN1c2ncccc2N(C)C(=O)c2c1c1ccccc1n2CC", "strain or isolate": "IIIB", "method": "cytopathic effect", "result": "0.04 µM"}
{"SMILES": "C=CC(C)(C)c1cc2cc(C[C@@H](O)C(C)(C)O)c(O)cc2oc1=O", "method": "MTT / syncytia", "result": "0.68 µM"}
{"SMILES": "CC(=O)N(/C=C/c1ccccc1Br)C(C)=O", "strain or isolate": "IIIB", "method": "syncytia", "result": "8 µM"}
{"SMILES": "Cc1cn([C@H]2C[C@H](N=[N+]=[N-])[C@@H](CO)O2)c(=O)[nH]c1=O", "strain or isolate": "IIIB", "method": "cytopathic effect", "result": "0.00674 µM"}
{"SMILES": "Cc1cn([C@H]2C[C@H](N=[N+]=[N-])[C@@H](CO)O2)c(=O)[nH]c1=O", "strain or isolate": "IIIB", "method": "syncytia / visual reading", "result": "0.02108 µM"}
{"SMILES": "CCN1c2ncccc2N(C)C(=S)c2oc3cccnc3c21", "strain or isolate": "MN", "method": "cytopathic effect", "result": "0.006 µM"}
{"SMILES": "COc1nc(=O)n([C@H]2C=C[C@@H](CO)O2)cc1C", "result": ">50 µM"}
{"SMILES": "CC[C@]1(c2ccccc2)Oc2cccnc2-n2cccc2C1=O", "method": "p24", "result": "0.56 µM"}
{"SMILES": "CCN1c2ncccc2N(C)C(=S)c2sc3cccnc3c21", "strain or isolate": "MN", "method": "cytopathic effect", "result": "0.0025 µM"}
{"SMILES": "C=C(C)[C@]1(O)C[C@@H](C)[C@@]2(O)[C@H]([C@H]1OC(=O)c1ccccc1)[C@@H]1O[C@]1(CO)[C@@H](O)[C@]1(O)C(=O)C(C)=C[C@H]12", "strain or isolate": "IIIB", "method": "syncytia / visual reading", "result": "3.29 µM"}

For reference, 2 entries again:

SMILES	strain or isolate	changes	method	result
C=C(C)[C@@]12OC3(c4ccccc4)O[C@@H]1[C@@H]1[C@H](O)[C@](O)(CO)[C@@H](O)[C@]4(O)C(=O)C(C)=C[C@H]4[C@@]1(O3)[C@H](C)[C@H]2OC(=O)c1ccccc1	IIIB		syncytia / visual reading	5.36 µM
Nc1ccn([C@H]2CC[C@@H](COP(=O)(OCC(Cl)(Cl)Cl)OCC(Cl)(Cl)Cl)O2)c(=O)n1	RF		antigen	7 µM